In PMC10132805 (2023):

Tests used:
VP40 1-20 (SEBOV) [1] = experiment: FP; NEDD4 WW2
VP40 1-20 (SEBOV) [2] = experiment: FP; NEDD4 WW4

B1: E3 ubiquitin-protein ligase NEDD4 WW domain (domain or fragment)
chain: GPLPPGWEERTHTDGRIFYINHNIKRTQWEDPRL
Kd (VP40 1-20 (SEBOV) [1]): 22 µM | Kd (VP40 1-20 (SEBOV) [2]): 68 µM
